Measurements reported in PubChem BioAssay AID1259414 (Drosophila RNAi Screening Center, 2018)
In all, the deposit lists about 24,000 reagents; this is a random part of those with a known target gene and a result. In the full data, about 1,210 (5%) got an active call. 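Inactive calls also include excluded dsRNAs with several or no targets, genes unexpressed in JW18, and well A1, regardless of score.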 Names joined by + are all predicted targets of the reagent.

Purpose: 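Host factors increasing or decreasing Wolbachia levels in cultured fly cells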 (primary screen)
Cell system: Drosophila JW18 cells infected with Wolbachia
Reagents: long dsRNA against Drosophila genes, 0.25 µg dsRNA per well of a 384-well plate
Timing: 5 days
Treatment: cells persistently infected with Wolbachia before knock-down; no added drug
Detection: 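Imaged fluorescence in situ signal for Wolbachia 23S rRNA per DAPI-counted host cell, given as a robust z-score within each plate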
Scale: Wolbachia per cell robust z: higher = more Wolbachia per host cell than the plate typical
Call rule: 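Hit when robust z is 1.5 or more, or -1.5 or less, in at least two of three replicates; excludes dsRNAs with several or no targets, genes not expressed in JW18 and well A1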

no.	Gene	dsRNA	Wolbachia per cell robust z, rep 1	Wolbachia per cell robust z, rep 2	Wolbachia per cell robust z, rep 3	outcome
1	INPP5E (GeneID 39404)	DRSC09723	-2.08	-4.71	-1.96	active
2	CG4576 (GeneID 41914)	DRSC15604	-1.49	0.0786	1.08	inactive
3	CG4576 (GeneID 41914)	DRSC26364	-0.255	0.289	0.697	inactive
4	Sf3a2 (GeneID 39456)	DRSC09801	0.281	1.18	-8.65	inactive
5	CG32202 (GeneID 326199)	DRSC09989	0.934	0.41	0.954	inactive
6	CG10492 (GeneID 35177)	DRSC24982	0.933	2.05	-7.63	inactive
7	wrm1 + wrm2	DRSC11007	-1.57	-0.727	-3.81	inactive
8	wrm1 + wrm2	DRSC24006	0.648	-0.356	-0.566	inactive
9	robl37BC (GeneID 35166)	DRSC02472	1.01	1	-0.408	inactive
10	Liprin-gamma (GeneID 37552)	DRSC04093	1.12	0.764	0.0288	inactive
11	GNBP3 (GeneID 39020)	DRSC11170	0.388	0.231	-1.75	inactive
12	CG33773 (GeneID 3772436)	DRSC38806	1.15	-0.145	1.49	inactive
13	CG4409 (GeneID 36840)	DRSC06869	0.544	-0.58	1.02	inactive
14	CG4409 (GeneID 36840)	DRSC28040	-0.213	-2.02	-2.07	inactive
15	CG11672 (GeneID 40977)	DRSC14344	-1.32	0.369	-0.186	inactive
16	DCTN2-p50 (GeneID 44086)	DRSC07132	-0.403	0.584	0.906	inactive
17	CG14756 (GeneID 35798)	DRSC06491	-2.18	0.271	-2.43	inactive
18	CG14756 (GeneID 35798)	DRSC24808	-5.52	-5.47	-5.47	inactive
19	Spn43Aa (GeneID 45041)	DRSC06117	0.047	-0.616	-3.44	inactive
20	peng (GeneID 33112)	DRSC20583	-1.89	-0.546	-1.01	inactive
21	peng (GeneID 33112)	DRSC29638	-0.838	-1.75	-2	active
22	Pbgs (GeneID 39402)	DRSC09718	-2.48	-0.394	-0.17	inactive
23	CG3032 (GeneID 31648)	DRSC18266	0.403	-1.18	-0.464	inactive
24	CG3032 (GeneID 31648)	DRSC24426	0.45	0.538	-0.174	inactive
25	CG5079 (GeneID 43089)	DRSC23061	-0.235	0.886	0.868	inactive
26	Sgp (GeneID 34188)	DRSC02195	0.0778	-0.524	-1.15	inactive
27	aralar1 (GeneID 43616)	DRSC13987	0.345	-0.501	-0.56	inactive
28	aralar1 (GeneID 43616)	DRSC16901	0.387	-0.348	0.167	inactive
29	aralar1 (GeneID 43616)	DRSC29693	0.954	0.962	0.638	inactive

Reprinted from the entries so far (7 entries):
no.	Gene	dsRNA	Wolbachia per cell robust z, rep 1	Wolbachia per cell robust z, rep 2	Wolbachia per cell robust z, rep 3	outcome
13	CG4409 (GeneID 36840)	DRSC06869	0.544	-0.58	1.02	inactive
14	CG4409 (GeneID 36840)	DRSC28040	-0.213	-2.02	-2.07	inactive
15	CG11672 (GeneID 40977)	DRSC14344	-1.32	0.369	-0.186	inactive
16	DCTN2-p50 (GeneID 44086)	DRSC07132	-0.403	0.584	0.906	inactive
17	CG14756 (GeneID 35798)	DRSC06491	-2.18	0.271	-2.43	inactive
18	CG14756 (GeneID 35798)	DRSC24808	-5.52	-5.47	-5.47	inactive
19	Spn43Aa (GeneID 45041)	DRSC06117	0.047	-0.616	-3.44	inactive

Additional reagents:
no.	Gene	dsRNA	Wolbachia per cell robust z, rep 1	Wolbachia per cell robust z, rep 2	Wolbachia per cell robust z, rep 3	outcome
30	beta-Spec (GeneID 32746)	DRSC20311	1.61	-1.68	0.566	inactive
31	beta-Spec (GeneID 32746)	DRSC40855	-0.93	-1.79	-2.61	active
32	CG15890 (GeneID 32401)	DRSC19737	-2.11	-1.87	0.189	inactive
33	vrs (GeneID 41537)	DRSC15832	1.04	-0.0462	-0.483	inactive
34	vrs (GeneID 41537)	DRSC26261	-0.00119	0.146	0.0163	inactive
35	CG9799 (GeneID 41647)	DRSC16567	-0.452	0.254	0.161	inactive
36	kto (GeneID 44830)	DRSC10983	-2.24	-5.63	0.822	active
37	CG1161 (GeneID 40638)	DRSC24956	0.0146	1.65	0.768	inactive
38	Lcch3 (GeneID 32554)	DRSC22175	-0.55	0.207	-0.443	inactive
39	Ssadh (GeneID 43092)	DRSC15621	1.18	1.78	-4.03	inactive
40	Ssadh (GeneID 43092)	DRSC27782	-1.67	-0.462	-1.52	active
41	Cpr49Aa (GeneID 246413)	DRSC07197	0.957	0.79	-1.39	inactive
42	CG31821 (GeneID 34938)	DRSC22162	-2.58	-1.93	-0.39	active
43	CG5235 (GeneID 39758)	DRSC10494	-1.59	-0.893	-0.611	inactive
44	ppk13 (GeneID 3346226)	DRSC02382	0.141	0.613	0.386	inactive
45	CG11069 (GeneID 42976)	DRSC14289	-1.57	-0.129	-0.344	inactive
46	CG15130 (GeneID 35312)	DRSC02430	-0.302	-0.753	1.99	inactive
47	PIG-X (GeneID 246580)	DRSC22721	0.632	-0.403	-1.02	inactive
48	sim (GeneID 41612)	DRSC17054	1.25	-0.108	-2.31	inactive
49	sim (GeneID 41612)	DRSC28753	-0.466	-1.61	-0.804	inactive
50	CG18745 (GeneID 59141)	DRSC15382	-2.31	-3.11	0.377	inactive
51	CG18745 (GeneID 59141)	DRSC30088	-0.283	0.912	0.00563	inactive
52	PPO1 (GeneID 37044)	DRSC05929	-0.848	-0.721	-3.99	inactive
53	PPO1 (GeneID 37044)	DRSC40857	-2.08	-1.68	-1.81	inactive
54	Patronin (GeneID 36978)	DRSC06756	-0.46	-0.479	0.842	inactive
55	Patronin (GeneID 36978)	DRSC06757	0.0408	-0.801	0.198	inactive
56	Patronin (GeneID 36978)	DRSC06994	0.803	0.939	0.675	inactive
57	CG11843 (GeneID 43432)	DRSC14401	-0.456	-0.807	-0.92	inactive
58	Hexim (GeneID 41778)	DRSC15490	-0.178	0.0753	0.0832	inactive
59	Pen (GeneID 34338)	DRSC03396	1.62	1.2	0.881	inactive
60	Pen (GeneID 34338)	DRSC39160	-0.832	0.522	0.816	inactive
61	CG7800 (GeneID 40963)	DRSC16315	1.29	0.366	-0.619	inactive
62	CG7800 (GeneID 40963)	DRSC27419	-1.15	-0.349	-4.32	inactive
63	RpL7A (GeneID 31588)	DRSC18709	2.02	3.17	2.19	active
64	RpL7A (GeneID 31588)	DRSC28833	1.93	3.42	3.29	active
65	Cyp6t1 (GeneID 33127)	DRSC20564	-0.356	-0.128	0.0728	inactive
66	Cyp6t1 (GeneID 33127)	DRSC24235	-0.626	-0.601	0.469	inactive
67	Acp36DE (GeneID 35096)	DRSC01860	-1.62	-0.529	-1.51	inactive
68	CG11149 (GeneID 33800)	DRSC02130	-0.714	0.187	1.15	inactive
